The record followed here is publication PMC12622350.

For at least one entry, the source does not settle the construct or the ends of the probe. At least one verdict was read from the data and is not stated in words by the source. Where a protein sequence is shown, tags need not be part of it.

This data set addresses T1, NikR (Helicobacter pylori 26695) (UniProt O25896).
T1 sequence (looked up): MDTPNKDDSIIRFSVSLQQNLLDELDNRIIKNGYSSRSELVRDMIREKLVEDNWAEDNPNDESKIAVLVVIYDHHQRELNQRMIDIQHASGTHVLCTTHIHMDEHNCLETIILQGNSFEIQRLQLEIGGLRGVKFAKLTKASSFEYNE
The experiment in a line: EMSA. The conditions noted are these: 5 mM H2O2; recombinant protein; residues 1-148; probe letters rebuilt from the primers and the genome. In general terms: A gel shift assay detects complexes by their altered migration in electrophoresis.
As for “TAAGCTTTTTTCTTTTTTTTTGATTTAATACTAGGTATAATTTTAATTCCACCTAACAAGGAAAAGCTATGAAAGTAACACAAGGCATTGCTAACGACTTTTTTGCCCTAACAAACACGA (double strand) [Probe-flgR 2]”, the binding result is on record as “binds”.

On to “TAGCAATGTTTTGATTTACTAAGATTAACAGAAGCGTTCATTAACTAATTATTATTTAAAATGAATTAGTGTTATATCTTTGAAGCGCTATAAAATCGTTATTAGAAGTGCGTTTAATAC (double strand) [OPhp0073]”, for which the binding result is “binds”.

“TTGGGTTGATTTAACTCAAGCAAATTTTCTTCAATCCTAACAAATTTGGCTGCAAATTAAAAAATTTAAGCTTTTTTCTTTTTTTTTGATTTAATACTAGGTATAATTTTAATTCCACCT (double strand) [Probe-flgR 1]”: the binding result was “binds”.
